Biological target: SARS-CoV-2 G614 (wild-type) receptor-binding domain (SARS-CoV-2, UniProt P0DTC2)
Experiment: cell-based or functional assay

B1: DXP-604 IgG (antibody, V domains shown)
VH: EVQLVESGGGLIQPGGSLRLSCAASGIIVSSNYMTWVRQAPGKGLEWVSVIYSGGSTFYADSVKGRFTISRDNSKNTLYLQMSSLRAEDTAVYYCARDLGPYGMDVWGQGTTVTVSS
VL: DIQLTQSPSFLSASVGDRVTITCRASQGISSDLAWYQQKPGKAPNLLIYAASTLQSGVPSRFSGSGSGTEFTLTISSLQPEDFATYYCQQLNSDLYTFGQGTKLEIK
In the case of B1, the “neutralisation of authentic SARS-CoV-2 G614, IC50” value is reported as 0.3 nM.

Source: PMC10801922 (Proceedings of the National Academy of Sciences of the …, 2024)
